Source: paper PMC5618191, “The Natural Fungal Metabolite Beauvericin Exerts Anticancer Activity In Vivo: A Pre-Clinical Pilot Study” (Toxins, 2017)

Assays:
[1] = system: CT-26-derived tumor allografts; assay: CT-26 allograft mouse model; type: in vivo, BALB/c mice; conditions: 5 mg/kg bw/day i.p., complete study period
Procedure: For the allograft experiment, 4 × 10^5 CT-26 cells were resuspended in 50 µL RPMI medium and injected subcutaneously into the right flank of eight, 6–8 weeks old, male BALB/c mice that were obtained from Harlan Laboratories (San Pietro al Natisone, Italy). Likewise, in the xenograft experiment, 1 × 10^6 KB-3-1 cells in 50 µL RPMI medium were injected subcutaneously into the right flank of eight, 6–8 weeks old, male CB-17/IcrHanHsd-Prkdc severe combined immunodeficiency (SCID) mice. Of each group, four animals were randomly assigned to the control or to the treatment group. […] Effects of the treatment were assessed by daily recording of tumor size with a microcaliper and parameters indicating the animals’ overall health condition (e.g., body weight, fatigue, grooming, ragged coat, food and fluid consumption). Tumor volumes (mm^3) were calculated using the formula: (length × width^2)/2. […]
From each mouse from both the control (n = 4) and the treatment group (n = 4), tissue samples were formalin-fixed, paraffin-embedded and used to prepare serial 3 µm sections. […] Numbers of the three cell fractions were analyzed in a blinded setup in at least four images of H/E-stained tumor sections, taken under a 40 × objective microscope lens. […]

[2] = Beauvericin distribution by LC-MS/MS, allograft model; type: in vivo, BALB/c mice
[3] = Beauvericin distribution by LC-MS/MS, xenograft model; type: in vivo, CB-17/SCID mice
[4] = 5 mg/kg bw/day i.p., 9 days of treatment

Which results are given for beauvericin?
Mean body weight of mice [1]: virtually unaltered; Beauvericin level in feces [2, 4]: 698.1 ± 257.2 µg/kg; Beauvericin level in kidney [2, 4]: 312.8 ± 104.6 µg/kg; Beauvericin level in liver [2, 4]: 266.5 ± 91.1 µg/kg; Accumulation in kidney compared to serum ([2]; allograft model): 8.8 fold; Accumulation in liver compared to serum ([2]; allograft model): 7.5 fold; Accumulation in tumors compared to serum ([2]; allograft model): 2.3 fold; Beauvericin level in colon [3, 4]: 217.2 ± 104.0 µg/kg; Beauvericin level in liver [3, 4]: 440.9 ± 165.9 µg/kg; Beauvericin level in serum [3, 4]: 55.7 ± 23.4 µg/kg; Accumulation in adipose tissue compared to serum ([3]; xenograft model): 46.7 fold; Enrichment in feces compared to serum ([3]; xenograft model): 16.4 fold; Enrichment in kidney compared to serum ([3]; xenograft model): 5.5 fold; Enrichment in liver compared to serum ([3]; xenograft model): 7.9 fold
